Anti-infective test results gathered from many reports (values: NIAID ChemDB through PubChem).

Shared fields: growth or infection tests; organism: Mycobacterium tuberculosis

MIC bound: limit read from a one-dose screen. An empty or dashed field is not shown. ECn is the concentration giving n% inhibition of infection, replication or growth. Lines come from different laboratories, so protocols vary. Two numbers with a dash give a range or band. MIC50, MIC90 and the like: level of inhibition, or share of isolates inhibited. Percent inhibition refers to the dose given; in toxicity tests it is the harm to the cells.

smiles,strain,measure,setting,tested at,read by,value
C[C@@H]1CN(c2c(F)c(N)c3c(=O)c(C(=O)O)cn(C4CC4)c3c2F)C[C@H](C)N1,TN1626 (WILD TYPE),EC50,-,-,-,0.035 µg/mL
CSC(=S)Nc1nc2ccc(C)cc2s1,H37Rv,MIC,-,-,BACTEC,≥128 µg/mL
COC(=O)NC[C@H]1CN(c2ccc(N3C=NN(C(N)=O)CC3)c(F)c2)C(=O)O1,20 clinical isolates,MIC90,-,-,resazurin,0.5 µg/mL
CCCCCOc1ccc(NC(=O)OC(C)CN2CCCCC2)cc1,My 331/88,MIC,-,-,-,16 µM
COc1ccc(C(=O)c2c(C(C(=O)c3ccc(OC)cc3)C(=O)c3ccc(OC)cc3)n(C(=O)c3ccc(OC)cc3)c3ccccc23)cc1,H37Rv,inhibition,-,12.5 µg/mL,BACTEC,0%
O=C(c1ccc(Cc2ccc(C(=O)C(Br)Br)cc2)cc1)C(Br)Br,H37Rv,MIC,-,-,-,6.25 µg/mL
CCn1cc(C(=O)O)c(=O)c2cc(F)c(N3CCN(CC(=O)OC[C@H]4O[C@@H](n5cc(C)c(=O)[nH]c5=O)C[C@@H]4N=[N+]=[N-])CC3)cc21,H37Rv (ATCC 27294),EC50,-,-,BACTEC,99 µg/mL
COC(=O)c1c(Cc2ccccc2)n([O-])c2ccccc2[n+]1=O,H37Rv,EC99,inside macrophages,-,-,>2 µg/mL
Cn1nnnc1SCC1=C(C(=O)O)N2C(=O)[C@@H](NC(=O)[C@H](O)c3ccccc3)[C@H]2SC1,16 strains,MIC,-,-,-,400–600 µg/mL
Nc1ccc(C(=O)O)c(O)c1,7800,inhibition,-,1.56 µM,-,100%
O=C(c1ccc(Oc2ccc(C(=O)C(Cl)Cl)cc2)cc1)C(Cl)Cl,H37Rv,MIC,-,-,-,3.125 µg/mL
CO[C@H]1/C=C/O[C@@]2(C)Oc3c(C)c(O)c4c(O)c(c(/C=N/OCCOC(C)C)c(O)c4c3C2=O)NC(=O)/C(C)=C\C=C\[C@H](C)[C@H](O)[C@@H](C)[C@@H](O)[C@@H](C)[C@H](OC(C)=O)[C@@H]1C,H37Rv,MIC,-,-,-,0.1 µg/mL
CCn1cc(C(=O)N/N=C/c2ccc(Cl)cc2)c(=O)c2ccccc21,H37Rv (ATCC 27294),MIC,-,-,resazurin,>100 µg/mL
O=[N+]([O-])c1cn2c(n1)O[C@@H](COc1ccc(N3CCC(Cc4ccc(OC(F)(F)F)cc4)CC3)cc1)C2,H37Rv,MIC,-,-,-,0.024 µg/mL
CC1COc2c(N3CCN(C)CC3)c(F)cc3c(=O)c(C(=O)O)cn1c23,106-2,MIC,-,-,-,1 µg/mL
COc1ccc(-n2[nH]c(C)c(N=Nc3ccc(-c4n[nH]c(=S)o4)cc3)c2=O)cc1,H37Rv,EC50,-,-,-,>6.25 µg/mL
Cn1cc(NC(=O)Nc2cc(C(=O)Nc3cc(C(=O)Nc4ccc(P(=O)(O)O)c5cc(P(=O)(O)O)ccc45)n(C)c3)n(C)c2)cc1C(=O)Nc1cc(C(=O)Nc2ccc(P(=O)(O)O)c3cc(P(=O)(O)O)ccc23)n(C)c1,H37Rv,MIC bound,-,-,BACTEC,>12.5 µg/mL
Cc1[nH]n(-c2ccccc2)c(=O)c1N=Nc1ccc(-c2n[nH]c(=S)n2C)cc1,H37Rv,inhibition,-,6.25 µg/mL,-,0%
Cc1ccc(NC(=O)C(C)Cl)cc1Cl,H37Rv,MIC bound,-,-,BACTEC,>12.5 µg/mL
CCCCCCOc1ccc(NC(=O)OC(COCC)CN2CCCCC2)cc1,My 331/88,MIC,-,-,-,16 µM
CCOC(=O)/C(ON)=C(/CC/C(C(=O)OC)=C(\ON)C(=O)OCC)C(=O)OC,H37Rv,MIC bound,-,-,BACTEC,>12.5 µg/mL
C[C@]1(COc2ccc(N3CCC(COCc4ccc(F)cc4Cl)CC3)cc2)Cn2cc([N+](=O)[O-])nc2O1,H37Rv,MIC,-,-,-,0.024 µg/mL
Nc1nc2nc(CCc3ccccc3)cnc2c(=O)[nH]1,H37Rv,MIC bound,-,-,BACTEC,>12.5 µg/mL
CCCCCOc1ccccc1NC(=O)OCCN1CCCCC1,My 331/88,MIC,-,-,-,32 µM
NC(=O)c1cnccn1,Erdman,EC50,7 d,-,-,<800 µg/mL
CN1CCN(c2ccc(N3C[C@H](CO)OC3=O)cc2F)C=N1,H37Rv,MIC,-,-,GFP / reporter gene,500 µg/mL
Cc1cccc2c(=O)c3cccc([C@@H](C)C(=O)O)c3oc12,H37Rv,MIC bound,-,-,BACTEC,>12.5 µg/mL
O=C(c1ccc(Oc2ccc(Cl)cc2)cc1)C(Cl)Cl,H37Rv,MIC,-,-,-,12.5 µg/mL
CC(=O)N[C@H]1CN(c2ccc(N3C=NN(S(N)(=O)=O)CC3)c(F)c2)C(=O)O1,20 clinical isolates,MIC90,-,-,resazurin,500 µg/mL
CCCCCCCOc1cccc(NC(=O)OCCN2CCCCC2)c1,My 331/88,MIC,-,-,-,8 µM
O=[N+]([O-])c1cc2cccnc2c2ncccc12,H37Rv,inhibition,-,12.5 µg/mL,BACTEC,98%
CCC1CN(c2c(F)cc3c(=O)c(C(=O)O)cn(C4CC4)c3c2OC)CCN1,TN3033 (D94N),MIC,-,-,-,0.7 µg/mL
C[C@]1(COc2ccc(N3CCC(COCc4cccc(Cl)c4)CC3)cc2)Cn2cc([N+](=O)[O-])nc2O1,H37Rv,MIC,-,-,-,0.024 µg/mL
O=C(c1ccc(CCc2ccc(C(=O)C(Br)Br)cc2)cc1)C(Br)Br,H37Rv,MIC,-,-,-,3.125 µg/mL
CO/N=C(\C(=O)N[C@@H]1C(=O)N2C(C(=O)O)=C(CSc3nc(=O)c(=O)[nH]n3C)CS[C@H]12)c1csc(N)n1,16 strains,MIC,-,-,-,800–1600 µg/mL
CCCO/N=C/c1c2c(O)c3c(O)c(C)c4c(c3c1O)C(=O)[C@@](C)(O/C=C/[C@H](OC)[C@@H](C)[C@@H](OC(C)=O)[C@H](C)[C@H](O)[C@H](C)[C@@H](O)[C@@H](C)/C=C/C=C(/C)C(=O)N2)O4,H37Rv,MIC,-,-,-,0.05 µg/mL
CCOC(=O)/C(N=Nc1ccc(-c2n[nH]c(=S)n2C)cc1)=C(\C)O,H37Rv,inhibition,-,6.25 µg/mL,-,1%
CC(=O)N[C@H]1CN(c2ccc(N3C=NN(C)CC3)c(F)c2)C(=O)O1,20 clinical isolates,MIC90,-,-,resazurin,1000 µg/mL
CO[C@H]1/C=C/O[C@@]2(C)Oc3c(C)c(O)c4c(O)c(c(/C=N/OCCO)c(O)c4c3C2=O)NC(=O)/C(C)=C\C=C\[C@H](C)[C@H](O)[C@@H](C)[C@@H](O)[C@@H](C)[C@H](OC(C)=O)[C@@H]1C,H37Rv,MIC,-,-,-,0.1 µg/mL
NC(=O)c1csc(-c2ccc(CO)o2)n1,H37Rv,MIC bound,-,-,BACTEC,>12.5 µg/mL
CCn1cc(C(=O)N/N=C/c2ccc([N+](=O)[O-])o2)c(=O)c2ccccc21,H37Rv (ATCC 27294),MIC,-,-,resazurin,6.25 µg/mL
CC(C)=CCC1=C(O)C(=O)C(CC=C(C)C)=C(O)C1=O,H37Rv,inhibition,-,128 µg/mL,BACTEC,94%
CCn1cc(C(=O)N/N=C/c2ccncc2)c(=O)c2ccccc21,H37Rv (ATCC 27294),MIC,-,-,resazurin,>100 µg/mL
C[C@]1(COc2ccc(N3CCN(C/C=C/c4ccc(Cl)c(C(F)(F)F)c4)CC3)cc2)Cn2cc([N+](=O)[O-])nc2O1,H37Rv,MIC,-,-,-,0.012 µg/mL
COC(=O)NC[C@H]1CN(c2ccc(N3C=NOCC3)c(F)c2)C(=O)O1,20 clinical isolates,MIC90,-,-,resazurin,500 µg/mL
CCOC(=O)C(NC(=O)c1ccccc1)(c1ccc(S(=O)(=O)Nc2onc(C)c2C)cc1)C(F)(F)F,H37Rv,inhibition,-,12.5 µg/mL,BACTEC,0%
CC1COc2c(N3CCN(C)CC3)c(F)cc3c(=O)c(C(=O)O)cn1c23,900145,MIC,-,-,-,0.5 µg/mL
CCn1cc(C(=O)N/N=C/c2ccc(Br)s2)c(=O)c2cc(Cl)ccc21,H37Rv (ATCC 27294),MIC,-,-,resazurin,>100 µg/mL
CO[C@H]1/C=C/O[C@@]2(C)Oc3c(C)c(O)c4c(=O)c(c5oc6cc(N7CCN(CC(C)C)CC7)cc(=O)c6nc5c4c3=C2O)NC(=O)/C(C)=C\C=C\[C@H](C)[C@H](O)[C@@H](C)[C@@H](O)[C@@H](C)[C@H](OC(C)=O)[C@@H]1C,H37Rv,MIC,-,-,-,0.004 µg/mL
C[C@]1(COc2ccc(C3CCN(CC/C=C/c4ccc(C(F)(F)F)cc4)CC3)cc2)Cn2cc([N+](=O)[O-])nc2O1,H37Rv,MIC,-,-,-,0.003 µg/mL
O=C(CO)CC(=O)C(=O)Nc1nc([N+](=O)[O-])cs1,H37Rv,inhibition,-,6.25 µg/mL,resazurin,-1%
CCCCCCOc1ccc(NC(=O)OC(C)CN2CCCCC2)cc1,My 331/88,MIC,-,-,-,8 µM
CCOC(=O)/C(N=Nc1ccc(C(=O)N/N=C/c2ccc([N+](=O)[O-])o2)cc1)=C(\C)O,H37Rv,MIC,-,-,-,<12.5 µg/mL
COc1cc(C2OCC3C(c4ccc(OC)c(OC5OC(CO)C(O)C(O)C5O)c4)OCC23)ccc1O,H37Rv,MIC bound,-,-,BACTEC,>12.5 µg/mL
CN(Cc1ccccc1C(F)(F)F)C1CCN(c2ccc(OC[C@@]3(C)Cn4cc([N+](=O)[O-])nc4O3)cc2)CC1,H37Rv,MIC,-,-,-,<0.008 µg/mL
COC(=O)N[C@H]1CN(c2ccc(N3C=NN(C4=NC(=O)CS4)CC3)c(F)c2)C(=O)O1,20 clinical isolates,MIC90,-,-,resazurin,250 µg/mL
CO[C@H]1/C=C/O[C@@]2(C)Oc3c(C)c(O)c4c(O)c(c(/C=N/OCCc5ccccc5)c(O)c4c3C2=O)NC(=O)/C(C)=C\C=C\[C@H](C)[C@H](O)[C@@H](C)[C@@H](O)[C@@H](C)[C@H](OC(C)=O)[C@@H]1C,H37Rv,MIC,-,-,-,0.2 µg/mL
CCN(CC)Cc1cc(C)c(O)c(N=Nc2cc(OC)c(N=Nc3ccc([N+](=O)[O-])cc3)cc2OC)c1C,H37Rv,MIC bound,-,-,resazurin,>6.25 µg/mL
Cc1cn([C@H]2C[C@H](N=[N+]=[N-])[C@@H](COC(=O)CN3CCN(c4cc5c(cc4F)c(=O)c(C(=O)O)cn5C4CC4)CC3)O2)c(=O)[nH]c1=O,H37Rv (ATCC 27294),EC50,-,-,BACTEC,99 µg/mL
COc1cc(COC(=O)c2ccc(CSc3ccc(Cl)cc3)o2)cc(OC)c1OC,H37Rv,MIC bound,-,-,BACTEC,>12.5 µg/mL
CCCCCCOc1ccccc1NC(=O)OCCN1CCCCC1,My 331/88,MIC,-,-,-,16 µM
O=C(N/N=C/c1ccc(O)cc1O)c1ccncc1,EMB-R,MIC,-,-,-,1 µg/mL
C[C@]1(COc2ccc(N3CCN(C/C=C/c4cc(Cl)cc(Cl)c4Cl)CC3)cc2)Cn2cc([N+](=O)[O-])nc2O1,H37Rv,MIC,-,-,-,0.006 µg/mL
CCCCOc1ccc(NC(=O)OCCN2CCCCC2)cc1,My 331/88,MIC,-,-,-,125 µM
CCn1cc(C(=O)N/N=C/c2ccco2)c(=O)c2cc(Cl)ccc21,H37Rv (ATCC 27294),MIC,-,-,resazurin,>100 µg/mL
CCCCCOc1cccc(NC(=O)OCCN2CCCCC2)c1,My 331/88,MIC,-,-,-,16 µM
Cc1[nH]n(-c2ccc([N+](=O)[O-])cc2)c(=O)c1N=Nc1ccc(-c2n[nH]c(=S)o2)cc1,H37Rv,EC50,-,-,-,>6.25 µg/mL
CSC(=S)N/N=C/c1cccn1C,H37Rv,MIC,-,-,BACTEC,32 µg/mL
O=C(c1ccc(Cc2ccc(C(=O)C(Cl)Cl)cc2)cc1)C(Cl)Cl,H37Rv,MIC,-,-,-,6.25 µg/mL
NNc1ncnc2c([C@@H]3O[C@H](CO)[C@@H](O)[C@H]3O)[nH]nc12,H37Rv,inhibition,-,12.5 µg/mL,BACTEC,10%
C[C@]1(COc2ccc(N3CCN(Cc4ccc(N5CCC(Oc6ccc(OC(F)(F)F)cc6)CC5)cc4)CC3)cc2)Cn2cc([N+](=O)[O-])nc2O1,H37Rv,MIC,-,-,-,0.012 µg/mL
Nc1nc2c(c(-c3ccccc3Cl)n1)COC/C2=C/c1ccccc1Cl,H37Rv,inhibition,-,12.5 µg/mL,BACTEC,92%
COc1ccc(OCC2CCN(c3ccc(OC[C@@]4(C)Cn5cc([N+](=O)[O-])nc5O4)cc3)CC2)c(Cl)c1,H37Rv,MIC,-,-,-,0.012 µg/mL
Cc1cc2cccnc2c2ncccc12,H37Rv,MIC bound,-,-,BACTEC,≤12.5 µg/mL
O=C(CCl)c1ccc(-c2ccccc2)cc1,H37Rv,MIC,-,-,-,12.5 µg/mL

4 of the rows above, restated:

{"smiles": "Cc1cccc2c(=O)c3cccc([C@@H](C)C(=O)O)c3oc12", "strain": "H37Rv", "measure": "MIC bound", "read by": "BACTEC", "value": ">12.5 µg/mL"}
{"smiles": "CCCCCCOc1ccc(NC(=O)OC(COCC)CN2CCCCC2)cc1", "strain": "My 331/88", "measure": "MIC", "value": "16 µM"}
{"smiles": "COC(=O)N[C@H]1CN(c2ccc(N3C=NN(C4=NC(=O)CS4)CC3)c(F)c2)C(=O)O1", "strain": "20 clinical isolates", "measure": "MIC90", "read by": "resazurin", "value": "250 µg/mL"}
{"smiles": "O=[N+]([O-])c1cc2cccnc2c2ncccc12", "strain": "H37Rv", "measure": "inhibition", "tested at": "12.5 µg/mL", "read by": "BACTEC", "value": "98%"}